From PMC2771899, “Augmentation of Reverse Transcription by Integrase through an Interaction with Host Factor, SIP1/Gemin2 Is Critical for HIV-1 Infection” (PLoS ONE, 2009)

system: endogenous SIP1; test: Immunoprecipitation of IN-V5 with endogenous SIP1; details: IN-V5 expressed in 293T cells; anti-V5 immunoprecipitation, anti-SIP1 Western blot; 48 h; 1.0 µg plasmid (2.5 µg for Y15A, K186Q, delta-KRK, LL241,242AA)

| Substance | Binding to endogenous SIP1 in 293T cells |
| --- | --- |
| IN1–55: NH2-terminal domain of IN | much weaker affinity compared to the C-terminal domain |
| IN51–212: central core domain of IN | much weaker affinity compared to the C-terminal domain |
| IN51–288: central core domain plus C-terminal domain of IN | significantly enhanced binding with SIP1 |
| IN-Cter: COOH-terminal domain of IN (201–288) | bound to SIP1 efficiently |
